Results of unrelated studies side by side (data: NIAID ChemDB).

Shared fields: growth or infection tests; species: HIV-1

ECn is the concentration giving n% inhibition of infection, replication or growth. Blank or dashed fields: not listed here. Lines come from different laboratories, so protocols vary.

structure,changes,cells,read by,conditions,measure,strain,result
Cc1cn([C@H]2C[C@H](N=[N+]=[N-])[C@@H](CO)O2)c(=O)[nH]c1=O,RT-L100I,CEM + CEM-SS,cytopathic effect / XTT,,EC50,IIIB,0.04 µM
S=C(NCCc1cccs1)Nc1ccc(Br)cn1,RT-M41L L210W T215Y,HT4 + HeLa,plaque count,,EC50,U317-8 Clinical isolate NRTI-resistant,0.0479 µM
Cc1cn([C@H]2C[C@H](N=[N+]=[N-])[C@@H](CO)O2)c(=O)[nH]c1=O,RT-K65R L74V M184V Y115F,PBMC,p24,,EC50,XM-ABC-resistant,<0.04 µM
CO[P@](=O)(c1cc(C)cc(/C=C/C#N)c1)c1c(C(N)=O)[nH]c2ccc(Cl)cc12,K103N,PBMC,,,EC50,,0.0009 µM
O=c1[nH]cnc2c1ncn2[C@H]1CC[C@@H](CO)O1,RT-T69SSS L210W T215Y,PBMC,p24,,EC50,XM-T69SSS,<38 µM
Cc1cc(C#Cc2ccccc2)cc(C)c1Oc1ccnc(Nc2ccc(C#N)cc2)n1,K103N,MT-4,MTT,,EC50,IIIB,0.125 µM
O=c1[nH]cnc2c1ncn2[C@H]1CC[C@@H](CO)O1,RT-V118I M184V,HeLa,luciferase,,EC50,Recombinant,5.8 µM
Cc1cc(C#Cc2cccc(N)c2)cc(C)c1Oc1ccnc(NC2CCN(Cc3ccc(C(N)=O)cc3)CC2)n1,E138K,MT-4,MTT,,EC50,IIIB,0.029 µM
O=C1N(Cc2ccc(CO)cc2)[C@H](Cc2ccccc2)[C@H](O)[C@@H](O)[C@@H](Cc2ccccc2)N1Cc1ccc(CO)cc1,,PBMC,p24,,EC50,B clinical isolate,0.04 µM
Cc1ccnc2c1NC(=O)c1cccnc1N2C1CC1,RT-D67N K70R Y181C T215Y K219Q,CEM + CEM-SS,cytopathic effect / XTT,,EC50,4XAZT+Y181C (RT D67N K70R Y181C T215Y K219Q),0.8 µM
Cc1cc(S(N)(=O)=O)ccc1NC(=O)COc1ccc(Cl)cc1C(=O)c1cc(Cl)cc(C#N)c1,RT-K103N G190A,MAGI,β-galactosidase,,EC50,NNRTI-resistant (RT K103N G190A),0.0041 µM
N#Cc1cc2[nH]c3ccccc3c2n(-c2ccc([N+](=O)[O-])cc2)c1=O,RT-Y181C,HeLa,luciferase,,EC50,NNRTI-resistant,0.45 µM
C/C=C/CSc1cc(NC(=S)c2ccsc2C)ccc1Cl,RT-K103N,CEM + CEM-SS,cytopathic effect / XTT,,EC50,UC10/costatolide-resistant (RT K103N),>2 µM
Nc1ccn([C@@H]2CS[C@H](CO)O2)c(=O)n1,RT-M41L E44D D67N T69D Y118I M184V L210W T215Y,PBMC,p24,,EC50,4755-5 NRTI resistant recombinant,>10 µM
CC(C)CN(C[C@@H](O)[C@H](Cc1ccccc1)NC(=O)[C@H](CC(N)=O)NC(=O)c1ccc2ccccc2n1)C(=O)NC(C)(C)C,PR-L63P V82T I84V,MT-4,p24,,EC95,NL4-3,1.5 µM
Cc1cn([C@H]2C=C[C@@H](CO)O2)c(=O)[nH]c1=O,K65R,Primary T lymphocytes,p24 / ELISA,,EC50,,1.5 µM
CCCc1cc(=O)oc2c3c(c4c(c12)OC(C)(C)C=C4)O[C@@H](C)[C@H](C)[C@@H]3O,,CEM + CEM-SS,cytopathic effect / XTT,,EC50,IIIB,0.5 µM
Cc1ccnc2c1NC(=O)c1cccnc1N2C1CC1,,MT-4,,,EC95,,0.4 µM
CCc1c(C(=O)c2cc(C)cc(C)c2)n(CC2CC=CC2)c(=O)[nH]c1=O,,PBMC,cytopathic effect / XTT,clinical isolate,EC50,CLADE E,0.0008 µM
Cc1cn([C@H]2C[C@H](N=[N+]=[N-])[C@@H](CO)O2)c(=O)[nH]c1=O,,PBMC,p24 / ELISA,,EC90,,0.13 µM
Nc1ccn([C@H]2CC[C@@H](CO)O2)c(=O)n1,,MT-4,RT activity,,EC50,RF,0.001 µM
CC(=O)c1ccc(C)cc1NC(C(N)=O)c1c(Cl)cccc1Cl,RT-L100I,CEM + CEM-SS,XTT,,EC50,Dihydrocostatolide-resistant (RT-L100I),0.02 µM
Cc1c(Sc2ccccc2)n(COCCO)c(=O)[nH]c1=O,,CEM + CEM-SS,cytopathic effect / XTT,,EC50,IIIB,17.8 µM
CCCc1cc(=O)oc2c3c(c4c(c12)OC(C)(C)C=C4)O[C@@H](C)[C@H](C)[C@@H]3O,RT-Y181C,CEM + CEM-SS,XTT,,EC50,Diphenyl sulfone-resistant (RT-Y181C),0.08 µM
CC(=O)N1CCC(C(=O)N(CCCN2CCC(Cc3ccc(C(N)=O)cc3)CC2)c2ccc(C)c(Cl)c2)CC1,,U87 (CD4+ CCR5+) + U87,luciferase,,EC50,R5 subtype F_2 recombinant,0.0055 µM
CCCc1cc(=O)oc2c3c(c4c(c12)OC(C)(C)C=C4)O[C@H](C)[C@@H](C)[C@@H]3O,,CEM + CEM-SS,XTT,,EC50,NL4-3,0.1 µM
O=C1N(Cc2ccc(CO)cc2)[C@H](Cc2ccccc2)[C@H](O)[C@@H](O)[C@@H](Cc2ccccc2)N1Cc1ccc(CO)cc1,PR-L10R L63P V82T I84V,MT-4,p24,,EC50,NL4-3,<3 µM
Nc1nc(=O)n([C@@H]2CS[C@H](CO)O2)cc1F,,Primary T lymphocytes,p24 / ELISA,,EC50,LAI,0.09 µM
CCc1c(CC2CCCCC2)nc(SCC(=O)c2ccccc2)[nH]c1=O,WAN,C8166,ELISA,,EC50,Clinical isolate,0.025 µM
Cc1cn([C@H]2C[C@H](N=[N+]=[N-])[C@@H](CO)O2)c(=O)[nH]c1=O,RT-M41L E44D D67N T69D L210W T215Y,PBMC,p24,,EC50,T156-3 NRTI resistant,>3.2 µM
Cc1ccnc2c1NC(=O)c1cccnc1N2C1CC1,,CEM + CEM-SS,cytopathic effect / XTT,,EC50,4XAZT+L100I,0.03 µM
C#C[C@]1(CO)O[C@@H](n2cnc3c(N)nc(F)nc32)C[C@@H]1O,,PBMC,single cycle / fluorescence,,EC50,,0.00023 µM
Cc1cn([C@H]2C[C@H](N=[N+]=[N-])[C@@H](CO)O2)c(=O)[nH]c1=O,RT-M184V,HeLa,luciferase,,EC50,NRTI resistant,0.0049 µM
Cc1cc(/C=C/c2ccccc2)cc(C)c1Oc1ccnc(Nc2ccc(C#N)cc2)n1,Y188L,MT-4,MTT,,EC50,IIIB,1.65 µM
CC(C)=CCOc1cc(NC(=S)c2ccsc2C)ccc1Cl,RT-L100I,CEM + CEM-SS,XTT,,EC50,Dihydrocostatolide-resistant (RT-L100I),0.03 µM
CCc1c(Sc2ccccn2)n(COCc2ccccc2)c(=O)[nH]c1=O,RT-Y181C,CEM + CEM-SS,cytopathic effect / XTT,,EC50,IIIB,2.2 µM
Cc1cn([C@H]2C[C@H](N=[N+]=[N-])[C@@H](CO)O2)c(=O)[nH]c1=O,RT-D67N K70R L100I T215Y K219Q,CEM + CEM-SS,XTT,,EC50,NL4-3(RT-4XAZT+L100I),0.02 µM
Cc1occc1C(=S)Nc1ccc(Cl)c(/C=N/OC(C)(C)C)c1,,CEM + CEM-SS,cytopathic effect / XTT,,EC50,4xAZT,0.04 µM
Cc1cc(C#Cc2ccc(C(F)(F)F)cc2)cc(C)c1Oc1ccnc(Nc2ccc(C#N)cc2)n1,RES056,MT-4,MTT,,EC50,IIIB,>7.353 µM
COC(=O)[C@H](C)NP(=O)(OC[C@@H]1C=C[C@H](n2cc(C)c(=O)[nH]c2=O)O1)Oc1ccc(Br)cc1,RT-K20R D67N K70R Y188L T215F K219Q,PBMC,p24,,EC50,C467-4 NRTI resistant,0.042 µM
O=C(O)P(=O)(O)O,,PBMC,p24,,EC50,7076 CLADE D CLADE D,46 µM
Cc1cn([C@H]2C[C@H](N=[N+]=[N-])[C@@H](CO)O2)c(=O)[nH]c1=O,,CEM,antigen,,EC50,IIIB/LAI,0.002 µM
CC(C)OC(=O)OCOP(=O)(CO[C@H](C)Cn1cnc2c(N)ncnc21)OCOC(=O)OC(C)C,RT-K103N Y181C,MT-2,p24,,EC50,A17,0.001 µM